A mixed list of measured activities; the numbers were collected in NIAID ChemDB.

Common to all: whole-cell or culture tests; species: Aspergillus niger

An empty or dashed field is not shown.

| smiles | strain or isolate | read-out | method | conditions | value |
|---|---|---|---|---|---|
| OC(Cn1cncn1)(Cn1cncn1)c1ccc(F)cc1F | MTCC 1881 | MIC | - | - | 10 µg/mL |
| O=C(NN1C(=O)/C(=C\c2ccccc2)SC1c1ccc(F)cc1)c1ccc(-c2ccccc2)cc1 | MTCC 8189 | MIC | - | - | 12.5 µg/mL |
| Cn1c(=O)cc(Oc2nc(Nc3ccc(C#N)cc3)nc(Nc3cnccn3)n2)c2ccccc21 | MTCC 2825 | MIC | agar | - | 250 µg/mL |
| O=c1c(N2CCOCC2)c(N2CCN(S(=O)(=O)Cc3ccccc3)CC2)cnn1-c1ccccc1 | ND254 | MIC | broth dilution | - | 0.78 µg/mL |
| Cn1c(=O)cc(Oc2nc(Nc3ccc(C#N)cc3)nc(Oc3cc(=O)oc4ccccc34)n2)c2ccccc21 | MTCC 2825 | MIC | agar | - | 200 µg/mL |
| COc1ccc(-c2cc(-c3ccc(F)cc3)nc(NC(=O)CN3CCOCC3)n2)cc1 | - | MIC | - | - | 50 µg/mL |
| O=C(N/N=C/c1cc(Br)cc(Br)c1O)c1ccccc1F | - | MIC | MTT / broth dilution | - | >50 µg/mL |
| C=C1C(=O)O[C@@H]2/C=C(\C)CC/C=C(\C)CC[C@@H]12 | MTCC 1344 | MIC | agar diffusion | - | 250 µg/mL |
| CCCCCCCCCC(=O)NC(CCCN)C(=O)NC(CCCN)C(=O)NC(CCCN)C(=O)NC(CCCN)C(=O)NC(CCCN)C(N)=O | ATCC 64028 | MIC | broth dilution | - | 50 µg/mL |
| C/C=C/[C@@H]1OC(=O)C=C[C@@H]1O | - | MIC | - | - | 500 µg/mL |
| CCCCCCCCCCCCCCCC(=O)NC(CCCN)C(=O)NC(CCCN)C(=O)NC(CCCN)C(N)=O | ATCC 64028 | MIC | broth dilution | - | 1.5 µg/mL |
| CC1(C)S[C@@H]2[C@H](NC(=O)Cc3ccccc3)C(=O)N2[C@H]1C(=O)O | - | MIC | MTT / broth dilution | - | >50 µg/mL |
| C[C@@H]1C/C=C/C=C/C=C/C=C/[C@H](OC2O[C@H](C)[C@@H](O)[C@H](N)[C@@H]2O)CC2O[C@](O)(C[C@@H](O)C[C@H]3O[C@@H]3/C=C/C(=O)O1)C[C@H](O)[C@H]2C(=O)O | Species complex | MIC50 | - | - | 32 µg/mL |
| Cc1ccc(C(=O)OC2CC(C)CCC2C(C)C)cc1 | - | MIC | - | - | 9.12 µM |
| Cn1ccnc1C(=O)c1nccn1C | - | MIC | broth dilution | 48 h | >512 µg/mL |
| CC1CCC(C(C)C)C(OC(=O)c2ccc(Cl)cc2)C1 | - | MIC | - | - | 8.91 µM |
| NN(Cc1ccccc1)CC(O)(Cn1cncn1)c1ccc(F)cc1F | ATCC 9042 | MIC80 | - | - | 4 µg/mL |
| C[C@H]1N(C(=O)c2ccc(C(F)(F)F)cc2)CCO[C@@]1(Cn1cncn1)c1ccc(F)cc1F | Isolate 2 | MIC | - | - | 100 µg/mL |
| CCCCCCCCCC(=O)NC(CCCN)C(=O)NC(CCCN)C(=O)NC(CCCN)C(N)=O | ATCC 64028 | MIC | broth dilution | - | 50 µg/mL |
| Cn1c(=O)cc(Oc2nc(Nc3ccc(C#N)cc3)nc(Nc3nc4ccc([N+](=O)[O-])cc4s3)n2)c2ccccc21 | MTCC 2825 | MIC | agar | - | 12.5 µg/mL |
| CC1CCC(C(C)C)C(OC(=O)c2ccc(Br)cc2)C1 | - | MIC | - | - | 9.12 µM |
| C[C@@H](c1ncncc1F)[C@](O)(Cn1cncn1)c1ccc(F)cc1F | ATCC 9642 | MIC | - | - | 1.56 µg/mL |
| CCC(C)CCCCCCCCCCC(=O)N[C@H]1C[C@@H](O)[C@@H](O)NC(=O)C2[C@@H](O)[C@@H](C)CN2C(=O)C(CO)NC(=O)C([C@H](O)C(O)c2ccc(O)cc2)NC(=O)NC(=O)[C@@H]2C[C@@H](O)CN2C(=O)[C@H]([C@@H](C)O)NC1=O | - | MIC | - | - | 31.25 µg/mL |
| CC1CCC(C(C)C)C(OC(=O)C(C)Cl)C1 | - | MIC | - | - | 12.59 µM |
| CC1CCC2(OC1)OC1CC3C4CCC5C[C@@H](OC6OC(CO)C(OC7OC(CO)C(O)C(OC8CC(OC9OC(CO)C(O)C(O)C9O)C(O)C(CO)O8)C7OC7OC(CO)C(O)C(O)C7O)C(O)C6O)[C@H](O)C[C@]5(C)C4CC[C@]3(C)C1[C@@H]2C | - | MIC | broth dilution | - | >2 µg/mL |
| CCC(=O)OC1CC(C)CCC1C(C)C | - | MIC | - | - | 7.41 µM |
| COc1cc(-c2nnc(Sc3nc(Nc4ccc(C#N)cc4)nc(Oc4cc(=O)n(C)c5ccccc45)n3)o2)cc(OC)c1OC | MTCC 2825 | MIC | agar | - | 25 µg/mL |
| O=C(NN1C(=O)/C(=C\c2ccccc2)SC1c1cccc(Br)c1)c1ccc(-c2ccccc2)cc1 | MTCC 8189 | MIC | - | - | 6.25 µg/mL |
| CCCCCCCCCCCCCC(=O)NC(CCCN)C(=O)NC(CCCN)C(=O)NC(CCCN)C(=O)NC(CCCN)C(N)=O | ATCC 64028 | MIC | broth dilution | - | 6.25 µg/mL |
| CCC1/C=C/C=C/C=C/C=C/C(OC2OC(C)C(O)C(N)C2O)CC2OC(O)(CC(O)CC(O)C(O)/C=C/C(=O)OC1C)CC(O)C2C(=O)O | CGMCC 3.6478 | MFC | broth dilution | - | 11.25 µg/mL |
| COc1ccc2nc(Nc3nc(Nc4ccc(C#N)cc4)nc(Oc4cc(=O)n(C)c5ccccc45)n3)sc2c1 | MTCC 2825 | MIC | agar | - | 100 µg/mL |
| CCCCCCCC(=O)NC(CCCN)C(=O)NC(CCCN)C(=O)NC(CCCN)C(=O)NC(CCCN)C(N)=O | ATCC 64028 | MIC | broth dilution | - | >100 µg/mL |
| CC1CCC(C(C)C)C(OC(=O)c2ccccc2)C1 | - | MIC | - | - | 12.02 µM |
| CCCCCCCCCCCC(=O)NC(CCCN)C(=O)NC(CCCN)C(=O)NC(CCCN)C(N)=O | ATCC 64028 | MIC | broth dilution | - | 6.25 µg/mL |
| O=C(NN1C(=O)/C(=C\c2ccccc2)SC1c1ccccc1)c1ccc(-c2ccccc2)cc1 | MTCC 8189 | MIC | - | - | 6.25 µg/mL |
| COc1ccccc1C(=O)OC1CC(C)CCC1C(C)C | - | MIC | - | - | 8.51 µM |
| CCCCCCCCCCCCCCCC(=O)NC(CCCN)C(=O)NC(CCCN)C(N)=O | ATCC 64028 | MIC | broth dilution | - | 12.5 µg/mL |
| O=C(NN1C(=O)/C(=C\c2cccc(Br)c2)SC1c1cccc(Br)c1)c1ccc(-c2ccccc2)cc1 | MTCC 8189 | MIC | - | - | 1.56 µg/mL |
| C=C1CC(C/C(C)=C/COc2ccc3ccc(=O)oc3c2)OC1=O | MTCC 2425 | MIC | - | - | 625 µg/mL |
| CC1CCC(C(C)C)C(OC(=O)/C=C/c2ccccc2)C1 | - | MIC | - | - | 9.77 µM |

For reference, 2 entries again:

smiles	strain or isolate	read-out	method	conditions	value
C[C@H]1N(C(=O)c2ccc(C(F)(F)F)cc2)CCO[C@@]1(Cn1cncn1)c1ccc(F)cc1F	Isolate 2	MIC	-	-	100 µg/mL
O=C(NN1C(=O)/C(=C\c2ccccc2)SC1c1ccc(F)cc1)c1ccc(-c2ccccc2)cc1	MTCC 8189	MIC	-	-	12.5 µg/mL

Neighbouring rows are from separate reports. A number after MIC or MFC names an inhibition level or a share of isolates.